# From PubChem BioAssay AID1159583 (ICCB-Longwood Screening Facility, Harvard Medical School, 2016)
# Only a part is listed here, and it is no random draw. Activity calls are given as the source filed them. Rule as the data show it: active = fluorescence inhibition mostly above about 23% (no sharp cut-off); inactive = mostly below about 17%.
# Test: hypoxia reporter signal reduction in M. tuberculosis – fluorescence, absorbance growth readout, primary screen (AID 1159583)
# Settings: M. tuberculosis hypoxia-regulated fluorescent reporter, stronger effect = higher value, concentration not given here
row,SMILES,fluorescence inhibition
1,O=[N+]([O-])c1cc([N+](=O)[O-])c(NCC2CCS(=O)(=O)C2)c([N+](=O)[O-])c1 (centres undefined),inactive: -3.91%
2,O=[As](O)(c1ccccc1)c1ccc(O)cc1,inactive: 45.1%
3,O=P(Nc1nc2ccccc2s1)(c1ccccc1)c1ccccc1,inactive: 13.8%
4,CCN(C(=NP(=O)(N1CCOCC1)N1CCOCC1)N1CCOCC1)c1ccc(OC)cc1,inactive: -5.78%
5,COc1ccc(NP(C)(=O)Oc2ccccc2OC)cc1 (centres undefined),inactive: 0.994%
6,COc1ccc(N)c([N+](=O)[O-])c1[N+](=O)[O-],inactive: -2.85%
7,CC(C)C=NN=C(N)N[N+](=O)[O-],inactive: 0.365%
8,COc1ccc(OP(C)(=O)Nc2cccc(Br)c2)cc1 (centres undefined),inactive: 18%
9,CN(C)C1(CNC(=O)c2ccc(Cl)c(S(N)(=O)=O)c2)CCCCC1,inactive: 8.83%
10,O=P(Nc1ccccn1)(c1ccc(Br)cc1)c1ccc(Br)cc1,inactive: 0.508%
11,C=CCN1CCN(CCOC(=O)C(O)(c2ccccc2)c2ccccc2)CC1,inactive: 2.61%
12,CCOP(C)(=S)SCC(=O)NC(C)(CC)C(=O)O (centres undefined),inactive: -4.85%
13,CP(=O)(Nc1ccc(SC(F)(F)F)cc1)Oc1ccc(F)cc1 (centres undefined),inactive: -5.17%
14,CCNC(=S)N=C(N)N[N+](=O)[O-],inactive: -1.56%
15,O=P(Nc1nccs1)(c1ccccc1)c1ccccc1,inactive: 2.32%
16,CC(C)C(=O)NC(Sc1ccccc1)C(Cl)(Cl)Cl (centres undefined),inactive: -1.56%
17,CC1(CBr)Cn2c(nc3ccccc3c2=O)S1 (centres undefined),inactive: 12.2%
18,O=[As](O)(c1ccccc1Br)c1ccccc1Br,inactive: 11.8%
19,COc1ccccc1CNC(=O)COC(=O)C(O)(c1ccccc1)c1ccccc1,inactive: 5.3%
20,O=[N+]([O-])c1cc([N+](=O)[O-])c(-c2cnn(-c3ccccc3)c2)c([N+](=O)[O-])c1,inactive: 9.57%
21,CC(C)(C)C(=O)NC(Sc1ncccn1)C(Cl)(Cl)Cl (centres undefined),inactive: 6.67%
22,Clc1n[nH]nc1-c1nn[nH][15n]1,inactive: 1.78%
23,CCOP(=O)(Nc1ccc(C)cn1)OCC,inactive: 6.05%
24,O=[N+]([O-])c1cc([N+](=O)[O-])c(-n2nnc3ccccc32)c([N+](=O)[O-])c1,inactive: 0.957%
25,O=P1(Nc2ccccn2)COc2ccccc2OC1,inactive: -83.1%

row,SMILES,fluorescence inhibition
1,O=[As](O)(c1cccs1)c1cccs1,inactive: 20.8%
2,NS(=O)(=O)c1cccc(NC(=O)COC(=O)C(O)(c2ccccc2)c2ccccc2)c1,inactive: -0.292%
3,O=P1(Nc2ccc(Br)cn2)COc2ccccc2OC1,inactive: 4.94%
4,CCCOc1ccc(NP(C)(=O)Oc2ccc(Cl)cc2)cc1 (centres undefined),inactive: -4.29%
5,CP(=O)(Nc1ccc(SC(F)(F)F)cc1)Oc1ccccc1 (centres undefined),inactive: 8.2%
6,Nc1cccc([As](=O)(O)c2ccccc2)c1,inactive: 15.4%
7,CN1CCCCC1COC(=O)C1(O)c2ccccc2CCc2ccccc21 (centres undefined),inactive: 0.457%
8,COc1ccccc1OP(C)(=O)Nc1c(C)cccc1C (centres undefined),inactive: 1.4%
9,O=P1(Nc2ncccn2)COc2ccccc2OC1,inactive: -2.3%
10,CCCC1OP(=O)(Nc2ccccc2)OCC1CC (centres undefined),inactive: 26.1%
11,O=C(/C=C/c1ccccc1)OC1CN2CCC1CC2 (centres undefined),inactive: 14%
12,CCOC(=O)C(CC)C1=NC(C)(C)Cc2ccccc21.O=[N+]([O-])c1cc([N+](=O)[O-])c(O)c([N+](=O)[O-])c1 (centres undefined),inactive: -1.61%
13,CN(C)C1(CNC(=O)c2ccc(S(C)(=O)=O)cc2)CCCCC1,inactive: -0.77%
14,O=[N+]([O-])c1cc([N+](=O)[O-])c(Nc2nnnn2CCO)c([N+](=O)[O-])c1,inactive: 21.3%
15,COc1cc(C2NCCC3(OCCO3)C2(C)C)cc(OC)c1OC.O=[N+]([O-])c1cc([N+](=O)[O-])c(O)c([N+](=O)[O-])c1 (centres undefined),inactive: -2.33%
16,Cc1ccc(C(=O)OC2CN3CCC2CC3)cc1 (centres undefined),inactive: 11.1%
17,CC1CCC(C(C)C)C(OP(=O)(Nc2ccccn2)c2ccccc2)C1 (centres undefined),inactive: 13.6%
18,Cc1nn(-c2ccccc2)c2c1P(=O)(N1CCOCC1)N(C)C(c1ccccc1)=N2 (centres undefined),inactive: 4.87%
19,CC1=NCCc2c1[nH]c1ccccc21.O=[N+]([O-])c1cc([N+](=O)[O-])c(O)c([N+](=O)[O-])c1,inactive: 2.13%
20,O=[N+]([O-])c1ccc2c(c1)nnn2O,inactive: -2.92%
21,CN(C)C(=O)c1cc([N+](=O)[O-])cc2c1-c1c(cc([N+](=O)[O-])cc1[N+](=O)[O-])C2=O,inactive: 14%
22,CCOP1(=S)c2c(C)nn(CCC#N)c2N=C(c2ccc(F)cc2)N1C (centres undefined),inactive: 1.35%
23,N#CCCN(C(=O)COC(=O)C(O)(c1ccccc1)c1ccccc1)c1ccc(F)cc1,inactive: 1.7%
24,Cc1ccc(NC(=NP(=O)(N2CCOCC2)N2CCOCC2)N2CCOCC2)cc1,inactive: -2.36%
